Reference: PubChem BioAssay AID504761 (Drosophila RNAi Screening Center, 2011)
Assay: 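Genome-wide fly cell screen for genes dengue virus requires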 (primary screen). System: D.Mel-2 cells from Drosophila. Reagents: long dsRNA against Drosophila genes. Conditions: infection with dengue virus type 2; dose and infection time not stated. Measurement: 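Per well on two replicate plates, imaging gave the percent of cells positive for viral envelope protein, ranked by infection, and a nuclear count of cells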. Reading the numbers: infection score: higher = more virus-infected cells. Active means: 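Very low infection ranking in both replicate wells (chance probability at most 0.065), then a retest showing infection dropped 1.5-fold or more at p below 0.05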. Meaning of the calls: active = confirmed: knock-down lowers infection; inactive = not picked or not confirmed.
The screen tested about 22,000 reagents; shown is a random part of those that have a named target and a result. Of all reagents, 116 (0.52%) are marked active. 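Calls depend on retest data that are not deposited; infection was ranked per plate without normalising between plates; the unit of the infection score is not given.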 Further read-outs or replicates are left out here. Not given: the amount of reagent, the time to read-out.

Gene | DRSC id | infection score, replicate 1 | activity call
Rab2 | DRSC05017 | 16.3 | inactive
Rab2 | DRSC26810 | 10.3 | inactive
PolA1 | DRSC16640 | 6.17 | inactive
PolA1 | DRSC27879 | 31 | inactive
geminin | DRSC04984 | 6.46 | inactive
geminin | DRSC29794 | 19.2 | inactive
CG13924 | DRSC08393 | 0.75 | inactive
CG5282 | DRSC11775 | 7.23 | inactive
CG8172 | DRSC07089 | 8.66 | inactive
CG8172 | DRSC22113 | 6.42 | inactive
CG8172 | DRSC25604 | 4.24 | inactive
Pal2 | DRSC04507 | 6.74 | inactive
Utx | DRSC02872 | 3.87 | inactive
CG30151 | DRSC05888 | 0.33 | inactive
CG30151 | DRSC24759 | 15.1 | inactive
CG31549 | DRSC21688 | 1.18 | inactive
kmg | DRSC02829 | 7.52 | inactive
CR11700 (retired record) | DRSC17794 | 0.58 | inactive
CR11700 (retired record) | DRSC23384 | 2.34 | inactive
CG18598 | DRSC15356 | 0.71 | inactive
CG15125 | DRSC06547 | 0.94 | inactive
Rbp1-like | DRSC19828 | 2.18 | inactive
Rbp1-like | DRSC22075 | 9.69 | inactive
Rbp1-like | DRSC25442 | 2.75 | inactive
ND-20L | DRSC15414 | 3.21 | inactive
Dhit | DRSC07411 | 13.6 | inactive
Dhit | DRSC25629 | 5.47 | inactive
CG9555 | DRSC03264 | 7.4 | inactive
CG9555 | DRSC25330 | 12.7 | inactive
NimB4 | DRSC01884 | 15.7 | inactive
NimB4 | DRSC24265 | 5.38 | inactive
Obp56f | DRSC22270 | 5.31 | inactive
brp | DRSC06245 | 2.79 | active
brp | DRSC06246 | 4.85 | inactive
brp | DRSC06801 | 3.32 | inactive
brp | DRSC21893 | 10.2 | inactive
brp | DRSC29170 | 28.9 | inactive
brp | DRSC29721 | 17.6 | inactive
tef | DRSC07301 | 21.4 | inactive
tef | DRSC22041 | 3.56 | inactive
tef | DRSC26918 | 9.92 | inactive
Fmr1 | DRSC16674 | 4.79 | inactive
Fmr1 | DRSC26781 | 8.96 | inactive
CG2336 | DRSC12581 | 7.44 | inactive
CG31437 | DRSC13711 | 1.07 | inactive
mRpS17 | DRSC04463 | 3.74 | inactive
CG15071 | DRSC06504 | 1.42 | inactive
CG15071 | DRSC28329 | 23.4 | inactive
CG4942 | DRSC10462 | 9.54 | inactive
CG7231 | DRSC03034 | 1.03 | inactive
RagC-D | DRSC07239 | 28.9 | inactive
CG14089 | DRSC10093 | 2.55 | inactive
CG14089 | DRSC24848 | 0.92 | inactive
CG13159 | DRSC06283 | 1.63 | inactive
CG13159 | DRSC28093 | 17.9 | inactive
St1 | DRSC04504 | 4.78 | inactive
St1 | DRSC25543 | 4.08 | inactive
CG15706 | DRSC06577 | 19.1 | inactive
Atg1 | DRSC09809 | 7.81 | inactive
Atg1 | DRSC09810 | 0.4 | inactive
CG2685 | DRSC18463 | 21.7 | inactive
CG2685 | DRSC27295 | 31.6 | inactive
CG31463 | DRSC14346 | 9.77 | inactive
CG31463 | DRSC26552 | 2.17 | inactive
Lcp3 | DRSC07457 | 13.2 | inactive
Lcp3 | DRSC25185 | 3.1 | inactive
CG4194 | DRSC18520 | 6.11 | inactive
CG6180 | DRSC02937 | 4.17 | inactive
CG6180 | DRSC25726 | 6.37 | inactive
CG30046 | DRSC06691 | 12.5 | inactive
capt | DRSC00676 | 5.01 | inactive
capt | DRSC00806 | 2.13 | inactive
capt | DRSC27343 | 34.7 | inactive
capt | DRSC28196 | 17.1 | inactive
